PubChem BioAssay AID624099, ICCB-Longwood, 2012
The deposit covers about 21,000 reagents; below is a random part of them. Over the whole deposit, 497 (2.4%) were called active. 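Higher z means weaker E2 silencing; only reporter increases were scored, and knock-downs that hurt cell survival may mask genuine repressor factors.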 A number with no mark means an inactive call. Reagents against one gene are numbered here.

Aim: 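Human genes that papillomavirus E2 requires to repress the HPV18 LCR promoter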 (primary screen)
System: human C33A cervical carcinoma cells (HPV-negative) stably expressing BPV1 E2 and an HPV18 LCR luciferase reporter
Knock-down reagent: siRNA pool against human genes, 40 nM
Timing: 72 h
Measured: 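Per-well luciferase luminescence, z-scored on each plate against the plate mean and SD with control wells left out, then averaged across three replicate plates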
Scale: mean z-score and z-score: higher = stronger reporter signal, weaker E2 silencing
Call rule: 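Mean z ≥ 2 together with z ≥ 2 in two or more of the three replicates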

gene	reagent	mean z-score	z-score, replicate A	z-score, replicate B	z-score, replicate C
IFI27	1	-1.3	-1.36	-1.52	-1.02
PRSS2	1	1.49	1.88	1.43	1.16
TRIM69	1	1.8	1.56	1.9	1.95
TRIM69	2	-0.22	0.27	-0.41	-0.53
LOC400876 (retired record)	1	-0.39	-0.23	-0.44	-0.52
HCRTR2	1	1.05	1	1.29	0.86
ZCCHC2	1	0.66	0.84	0.66	0.48
ZCCHC2	2	-0.35	-0.88	0.04	-0.21
SGIP1	1	0.42	0.58	0.4	0.27
RPS4Y1	1	1.02	1.26	0.9	0.89
IGHMBP2	1	-0.29	-0.17	-0.25	-0.44
ABI3BP	1	0.38	0.2	0.34	0.59
CD5L	1	-0.59	-0.67	-0.62	-0.49
TMEM156	1	-1	-2.04	-0.92	-0.03
GABRA4	1	-0.19	-0.09	-0.25	-0.23
LMO2	1	-0.01	0	0.13	-0.15
MPV17L2	1	-1.15	-1.53	-0.9	-1.02
ZNF527	1	-0.34	-0.14	-0.75	-0.12
CIDEC	1	0.72	0.28	0.54	1.34
H1-7	1	-1.25	-1.26	-1.3	-1.19
FASTKD4	1	-1.88	-1.59	-2.07	-1.98
RPS14	1	-1.18	-1.34	-1.24	-0.96
OSBPL7	1	-0.38	-0.56	0.05	-0.63
SBDS	1	0.2	0.09	0.16	0.34
CAMKV	1	-1.63	-1.24	-1.99	-1.67
PRUNE2	1	-0.69	-0.79	-0.85	-0.45
PRUNE2	2	-0.77	-0.79	-0.78	-0.73
CCDC162P	1	1.32	1.45	1.15	1.35
CCDC162P	2	2.51 (active)	2.32	2.25	2.95
CCDC162P	3	-0.57	-0.6	0.04	-1.14
CCDC162P	4	-0.55	-1.03	-0.17	-0.44
TMEM179	1	0.3	0.13	0.4	0.38
LINC02347	1	0.09	0.28	-0.02	0.03
OR7C1	1	1.72	1.45	1.5	2.2
ARHGEF16	1	0.23	0.15	0.16	0.39
SRXN1	1	-1.03	-1.07	-1.2	-0.82
FAM24A	1	-0.17	-0.28	-0.15	-0.07
LOC402681 (retired record)	1	0.78	1.06	0.9	0.39
SSR2	1	0.15	0.35	0.06	0.04
NDUFAF4P2	1	-0.49	-0.7	0.23	-1.01
NDUFAF4P2	2	-1.09	-1.35	-1.13	-0.78
GGPS1	1	0.11	0.21	-0.12	0.24
WHAMM	1	1.63	1.45	1.82	1.63
TM4SF4	1	1.61	1.46	1.77	1.6
PSG6	1	1.91	1.56	2.08	2.09
FAM187B	1	1.3	1.56	0.78	1.56
LOC389786 (retired record)	1	-1.17	-1.39	-0.79	-1.32
ABCD2	1	1.35	1.33	1	1.73
UGT2A3	1	-0.29	0.57	-0.65	-0.81
NAGLU	1	0.44	0.46	0.53	0.34
VPS35	1	1.18	1.12	1.04	1.39
NXPH1	1	-0.41	-0.37	-0.15	-0.7
GPATCH8	1	1.61	1.83	1.48	1.53
UNC45A	1	-0.71	-0.83	-0.46	-0.83
NUTM1	1	-0.21	-0.31	0.01	-0.31
USP6	1	-0.65	-0.61	-0.67	-0.67
LOC400681 (retired record)	1	0.05	-0.02	0.05	0.12
LOC147941 (retired record)	1	0.3	0.31	0.03	0.57
DMWD	1	-1.47	-1.63	-1.3	-1.48
CANX	1	1.22	1.65	0.66	1.34
RBFOX2	1	1.18	1.27	1.17	1.1
ERP27	1	-0.17	0.08	-0.18	-0.42
CSTPP1	1	-2.36	-2.53	-2.19	-2.36
XPO5	1	-1.29	-1.44	-1.2	-1.22
F3	1	0.22	0.16	0.41	0.09
ERMP1	1	-0.2	0.04	-0.39	-0.24
HSP90AB1	1	0.46	0.5	0.73	0.14
STK25	1	-0.21	-0.59	0.28	-0.32
EPHX3	1	0.28	0.68	0.05	0.12
SGK2	1	-1.88	-1.7	-1.94	-2.02
MRFAP1L1	1	0.42	0.35	0.67	0.24
CCDC144A	1	0.58	0.66	0.69	0.39
PRDX3	1	0.79	1.02	0.72	0.64

In a second layout: results already given.
{"gene": "LOC400681 (retired record)", "reagent": 1, "mean z-score": 0.05, "z-score, replicate A": -0.02, "z-score, replicate B": 0.05, "z-score, replicate C": 0.12}
{"gene": "LOC147941 (retired record)", "reagent": 1, "mean z-score": 0.3, "z-score, replicate A": 0.31, "z-score, replicate B": 0.03, "z-score, replicate C": 0.57}
{"gene": "DMWD", "reagent": 1, "mean z-score": -1.47, "z-score, replicate A": -1.63, "z-score, replicate B": -1.3, "z-score, replicate C": -1.48}
{"gene": "CANX", "reagent": 1, "mean z-score": 1.22, "z-score, replicate A": 1.65, "z-score, replicate B": 0.66, "z-score, replicate C": 1.34}
